PubChem BioAssay AID504761, Drosophila RNAi Screening Center, 2011
Test: 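Fly genes whose silencing reduces dengue virus type 2 infection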 (primary screen). Cells: D.Mel-2 cells from Drosophila. Reagent: long dsRNA against Drosophila genes. Challenge: infection with dengue virus type 2; dose and infection time not stated. Measured: 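Cells stained for dengue envelope protein and imaged; percent of infected cells per well on duplicate plates, ranked by infection, with stained nuclei counted for cell number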. Direction: infection score: higher = more virus-infected cells; cell count: higher = more cells in the well. Rule for the call: 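Very low infection ranking in both replicate wells (chance probability at most 0.065), then a retest showing infection dropped 1.5-fold or more at p below 0.05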. Meaning of the calls: active = confirmed: knock-down lowers infection; inactive = not picked or not confirmed.
The deposit covers about 22,000 reagents; shown is a random part of those that have a named target and a result. In the full data, 116 (0.52%) got an active call. 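Calls depend on retest data that are not deposited; infection was ranked per plate without normalising between plates; the unit of the infection score is not given.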 Raw values are not corrected between plates. The numbers tell different reagents against one gene apart. Not given: the amount of reagent, the time to read-out.

| Target gene | reagent | infection score, replicate 1 | infection score, replicate 2 | cell count, replicate 1 | cell count, replicate 2 | activity call |
| --- | --- | --- | --- | --- | --- | --- |
| obst-G (GeneID 39355) | 1 | 3.12 | 4.08 | 5993 | 6426 | inactive |
| CG1927 (GeneID 38262) | 1 | 5.2 | 5.57 | 6590 | 6427 | inactive |
| CG16798 (GeneID 35308) | 1 | 3.15 | 7.46 | 7053 | 6820 | inactive |
| CG13692 (GeneID 33216) | 1 | 8.76 | 5.21 | 7132 | 6908 | inactive |
| CG13692 (GeneID 33216) | 2 | – | – | 401 | 368 | inactive |
| CG31957 (GeneID 319046) | 1 | 3.36 | 1.9 | 6161 | 5197 | inactive |
| Lsd-1 (GeneID 42810) | 1 | 4.69 | 5.8 | 6097 | 6190 | inactive |
| CG32276 (GeneID 251645) | 1 | 0.87 | 1.6 | 6346 | 6058 | inactive |
| Mat1 (GeneID 36130) | 1 | 3.84 | 3.06 | 6597 | 6741 | inactive |
| Mat1 (GeneID 36130) | 2 | 6.37 | 3.74 | 6330 | 6473 | inactive |
| CG10934 (GeneID 37013) | 1 | 9.25 | 22.7 | 5264 | 4372 | inactive |
| Jon25Bii (GeneID 33707) | 1 | 2.61 | 28.3 | 5549 | 5585 | inactive |
| Jon25Bii (GeneID 33707) | 2 | 12.6 | 22 | 2845 | 5761 | inactive |
| CG4496 (GeneID 34000) | 1 | 22.2 | 30.7 | 2690 | 6250 | inactive |
| CG12035 (GeneID 38217) | 1 | 9.91 | 16.4 | 5297 | 4845 | inactive |
| MtnB (GeneID 42424) | 1 | 10.5 | 24.1 | 6365 | 3981 | inactive |
| MtnB (GeneID 42424) | 2 | 2.26 | 14.6 | 972 | 5428 | inactive |
| Rbp9 (GeneID 33498) | 1 | 1.92 | 13.5 | 6420 | 6367 | inactive |
| Rbp9 (GeneID 33498) | 2 | 5.65 | 1.33 | 6175 | 6704 | inactive |
| Rbp9 (GeneID 33498) | 3 | 36.6 | 8.83 | 5633 | 6091 | inactive |
| Obp51a (GeneID 246666) | 1 | 1.42 | 0.67 | 5711 | 6400 | inactive |
| Ir76a (GeneID 40157) | 1 | 2.53 | 4.11 | 6808 | 6941 | inactive |
| HtrA2 (GeneID 41756) | 1 | 10.1 | 3.91 | 5181 | 4785 | inactive |
| HtrA2 (GeneID 41756) | 2 | 8.29 | 20.7 | 2207 | 5649 | inactive |
| TwdlZ (GeneID 318092) | 1 | 1.82 | 2.29 | 6718 | 6799 | inactive |
| NK7.1 (GeneID 41747) | 1 | 2.55 | 1.16 | 5692 | 5965 | inactive |
| b (GeneID 34791) | 1 | 0.92 | 3.06 | 6330 | 6534 | inactive |
| b (GeneID 34791) | 2 | 9.56 | 32.9 | 6152 | 5496 | inactive |
| spi (GeneID 35253) | 1 | 0.39 | 12.7 | 772 | 2661 | inactive |
| spi (GeneID 35253) | 2 | – | 11.8 | 342 | 3896 | inactive |
| CG34057 (GeneID 3885645) | 1 | 1.05 | 2.33 | 5605 | 5886 | inactive |
| CG15880 (GeneID 33257) | 1 | 2.53 | 2.86 | 5800 | 6219 | inactive |
| Chd1 (GeneID 33505) | 1 | 4.66 | 3.33 | 6047 | 6525 | inactive |
| ppk17 (GeneID 35006) | 1 | 3.22 | 3.58 | 6372 | 6344 | inactive |
| Cul3 (GeneID 34896) | 1 | 12.2 | 9.17 | 5751 | 5386 | inactive |
| Cul3 (GeneID 34896) | 2 | 1.52 | 2.35 | 5927 | 6758 | inactive |
| Cul3 (GeneID 34896) | 3 | 11.9 | 11.6 | 5862 | 5770 | inactive |
| Cul3 (GeneID 34896) | 4 | 1.78 | 9.96 | 5944 | 5022 | inactive |
| CG3199 (GeneID 41725) | 1 | 1.12 | 3.46 | 6244 | 6612 | inactive |
| CG3199 (GeneID 41725) | 2 | 3.28 | 8.42 | 5756 | 4884 | inactive |

Just “infection score, replicate 2”, for 6 of the entries above:
CG32276 (GeneID 251645) = 1.6
Mat1 (GeneID 36130) #1 = 3.06
Mat1 (GeneID 36130) #2 = 3.74
CG10934 (GeneID 37013) = 22.7
Jon25Bii (GeneID 33707) #1 = 28.3
Jon25Bii (GeneID 33707) #2 = 22
